Measured values from several laboratories, pooled; numbers as filed in NIAID ChemDB.

Shared fields: tests in culture; organism: HIV-1; cells: MT-4; read-out: EC50

An empty or dashed field is not shown. Rows are shuffled and stem from different studies. ECn is the concentration giving n% inhibition of infection, replication or growth.

SMILES,strain or isolate,mutations,read by,value
CNC(=O)c1[nH]c(=O)c(O)c2c1CCN(Cc1ccc(F)cc1)C2=O,-,-,p24,<10 µM
COc1c(Cl)cc(C(=CCNC(=O)C[C@H]2CC[C@]3(C)C4CC[C@@]5(C)C(CC[C@@H]5CC(=O)NCC=C(c5cc(Cl)c(OC)c(C(=O)O)c5)c5cc(Cl)c(OC)c(C(=O)O)c5)C4CC[C@H]3C2)c2cc(Cl)c(OC)c(C(=O)O)c2)cc1C(=O)O,IIIB,-,cytopathic effect / MTT,48 µM
Cc1ccnc2c1NC(=O)c1cccnc1N2C1CC1,IIIB,-,MTT,>0.05 µM
O=C1c2c(O)c(=O)n(CC3CCCN4CCCCC34)c(=O)n2CCN1Cc1ccc(F)cc1,-,-,p24,<10 µM
COC(=O)c1[nH]c(=O)c(O)c2c1CCN(Cc1ccc(F)cc1)C2=O,-,-,p24,<10 µM
Nc1ncnc2c1ncn2[C@H]1CO[C@@H](CO)S1,-,-,cytopathic effect,>395 µM
Cc1cccc(Nn2c(-c3ccccc3)c(C)[nH]c2=S)c1,IIIB,-,cytopathic effect / MTT,1.56 µM
O=C1Nc2ccc(Cl)cc2Sc2c1[nH]c1ccc(Cl)cc21,IIIB,-,cytopathic effect / MTT,>200 µM
C[C@@H]1CO[C@@]23CCCC[C@@H]2n2cc(C(=O)NCc4ccc(F)c(Cl)c4F)c(=O)c(O)c2C(=O)N13,IIIB,-,luminescence,0.00207 µM
O=c1ccn([C@H]2CS[C@@H](CO)O2)c(=O)[nH]1,-,-,cytopathic effect,>435 µM
CC(C)Cc1c(OCC2CCC2)c2cnccc2[nH]c1=O,Nevirapine-resistant (RT Y181C),RT-Y181C,-,0.33 µM
CCN(CC)C(=O)c1c2c(c(O)c(=O)n1C)C(=O)N(Cc1ccc(F)c(Cl)c1)CC2,-,-,p24,<10 µM
CCCc1c(OCC2CCC2)c2cc(F)ccc2[nH]c1=O,Nevirapine-resistant (RT Y181C),RT-Y181C,-,0.117 µM
C/C(=N\Nc1nc(-c2ccc([N+](=O)[O-])cc2)cs1)c1ccc(-n2ccnc2)cc1,IIIB,-,MTT,>38.9 µM
O=C1c2c(O)c(=O)n(CC(F)(F)F)c(=O)n2CCN1Cc1ccc(F)cc1,-,-,p24,<10 µM
C/C(=N\Nc1nc(-c2ccc([N+](=O)[O-])cc2)cs1)c1ccc2c(c1)OCO2,IIIB,-,MTT,>97.2 µM
C[C@@H]1CO[C@@]23CCCC[C@@H]2n2cc(C(=O)NCc4ccc(F)cc4F)c(=O)c(O)c2C(=O)N13,IIIB,-,luminescence,0.002096 µM
O=c1ccn([C@@H]2CS[C@@H](CO)O2)c(=O)[nH]1,-,-,cytopathic effect,>437 µM
O=C1Nc2ccccc2Sc2c1[nH]c1ccccc21,IIIB,-,cytopathic effect / MTT,30 µM
CC(C)NC(=S)N(C)CCC1CN(Cc2ccc(F)cc2)C(=O)c2c(O)c(=O)n(C(C)C)c(=O)n21,-,-,p24,<10 µM
CCOc1ccc(F)c(CCNC(=S)Nc2ncc(C(F)(F)F)s2)c1Cl,IIIB,-,cytopathic effect / XTT,0.07 µM
CC(C)[C@H](C)CC[C@](C)(O)[C@H]1C(=O)C[C@H]2[C@@H]3C(=O)C=C4C[C@@H](O)CC[C@]4(C)[C@H]3CC[C@@]21C,NL4-3,K65R RI-resistant,MTT,0.1393 µM
CCCc1c(SC2CCCC2)c2cc(F)ccc2[nH]c1=O,Nevirapine-resistant (RT Y181C),RT-Y181C,-,0.263 µM
Clc1cccc(Nn2cnc3c2CCCC3)c1,IIIB,-,cytopathic effect / MTT,>67.29 µM
Brc1ccc(-c2csc(N/N=C/c3cccnc3)n2)cc1,IIIB,-,MTT,>23.39 µM
CC(=O)N(C)c1c2c(c(O)c(=O)n1C)C(=O)N(Cc1ccc(F)cc1)CC2,-,-,p24,<10 µM
CCCc1c(OC2CCCC2)c2cc(F)ccc2[nH]c1=O,-,-,-,0.094 µM
CC(C)n1c(C(=O)N(C)C)c2c(c(O)c1=O)C(=O)N(Cc1ccc(F)c(Cl)c1)CC2,-,-,p24,<10 µM
C[C@H]1CN2C(=O)c3c(O)c(=O)c(C(=O)NCc4ccc(F)c(Cl)c4F)cn3[C@H]3CCC[C@]32O1,IIIB,-,luminescence,0.002703 µM
O=C1Nc2ccccc2S(=O)(=O)c2c1[nH]c1ccccc21,IIIB,-,cytopathic effect / MTT,14 µM
S=c1[nH]c2c(n1Nc1cccc(Cl)c1)CCCC2,IIIB,-,cytopathic effect / MTT,>126 µM
CCCc1c(OCC2CC2)c2cc(Cl)ccc2[nH]c1=O,Nevirapine-resistant (RT Y181C),RT-Y181C,-,3.01 µM
C[C@]12CCC3C(CC[C@H]4C[C@@H](CCC=C(c5cc(Cl)c(O)c(C(=O)O)c5)c5cc(Cl)c(O)c(C(=O)O)c5)CC[C@]34C)C1CC[C@@H]2CCC=C(c1cc(Cl)c(O)c(C(=O)O)c1)c1cc(Cl)c(O)c(C(=O)O)c1,RF,-,cytopathic effect / MTT,1.3 µM
O=c1[nH]cnc2c1[nH]c[n+]2[C@@H]1CS[C@@H](CO)O1,-,-,cytopathic effect,>410 µM
O=C1c2c(O)c(=O)n(C34CC5CC(CC(C5)C3)C4)c(=O)n2CCN1Cc1ccc(F)cc1,-,-,p24,<10 µM
Cc1nc2ccccc2c(-c2cc(F)c3c(c2C)CCCO3)c1[C@H](OC(C)(C)C)C(=O)O,NL4-3,L102F,luminescence,3.05 µM
CC(C)c1c(OCC2CCC2)c2cnccc2[nH]c1=O,Nevirapine-resistant (RT Y181C),RT-Y181C,-,0.64 µM
Cc1cc(C)cc(Nn2c(-c3ccccc3)c(C)[nH]c2=S)c1,NL4-3,-,cytopathic effect / MTT,0.87 µM
O=C1c2c(O)c(=O)n([C@@H]3CCCC[C@@H]3O)c(=O)n2CCN1Cc1ccc(F)cc1,-,-,p24,<10 µM
C/C(=N\Nc1nc(-c2ccc([N+](=O)[O-])cc2)cs1)c1ccc(-c2ccc(Br)cc2)cc1,IIIB,-,MTT,>66.15 µM
NC(=O)c1[nH]c2ccc(Cl)cc2c1S(=O)(=O)c1ccccc1,IIIB,-,cytopathic effect / MTT,0.00125 µM
CC(C)n1c(=O)c(O)c2n(c1=O)C(CCN(C)S(C)(=O)=O)CN(Cc1ccc(F)cc1)C2=O,-,-,p24,<10 µM
O=C(NC1CC1)c1[nH]c(=O)c(O)c2c1CCN(Cc1ccc(F)cc1)C2=O,-,-,p24,<10 µM
COc1cccc(Nn2c(-c3ccccc3)c(C)[nH]c2=S)c1,IIIB,-,cytopathic effect / MTT,4.78 µM
CC(C)NC(=O)c1[nH]c(=O)c(O)c2c1CCN(Cc1ccc(F)cc1)C2=O,-,-,p24,<10 µM
CC(C)=CCC[C@]1(C)C=Cc2c(ccc3c2C(=O)C(O)=C(C2=C(C4=C(O)C(=O)c5c(ccc6c5C=C[C@@](C)(CCC=C(C)C)O6)C4=O)C(=O)c4c(ccc5c4C=C[C@@](C)(CCC=C(C)C)O5)C2=O)C3=O)O1,RF,-,p24,0.02 µM
Oc1ccccc1/C=N/Nc1nc(-c2ccc(Cl)cc2)cs1,IIIB,-,MTT,>102 µM
CCCc1c(OC2CCCC2)c2cc(C#N)ccc2[nH]c1=O,-,-,-,0.082 µM
COc1c(Cl)cc(C(=CCCCCN[C@H]2CC[C@]3(C)C4CC[C@@]5(C)C(CC[C@@H]5C(C)CCCC(C)C)C4CC[C@H]3C2)c2cc(Cl)c(OC)c(C(=O)O)c2)cc1C(=O)O,IIIB,-,cytopathic effect / MTT,>150 µM
COc1cccc2c1c(/C(O)=C1\COC(=O)C1=O)cn2Cc1ccc(F)cc1,IIIB,-,MTT,0.55 µM
CC[C@H](CC[C@](C)(O)[C@H]1CC[C@H]2[C@@H]3[C@H](O)C=C4C[C@@H](O)CC[C@]4(C)[C@H]3CC[C@@]21C)C(C)C,NL4-3,-,MTT,1.22 µM
O=C(NC1CCC1)c1[nH]c(=O)c(O)c2c1CCN(Cc1ccc(F)cc1)C2=O,-,-,p24,<10 µM
CC(C)Cc1c(OC2CCCC2)c2cc(Cl)ccc2[nH]c1=O,Nevirapine-resistant (RT Y181C),RT-Y181C,-,0.93 µM
CCc1[nH]c(=S)n(Nc2cccc(C)c2)c1-c1ccccc1,SO561945 (RT K103N Y181C),RT-K103N Y181C,cytopathic effect / MTT,≥53.55 µM
COc1c(Cl)cc(C(=CCCNC(=O)C[C@H]2CC[C@]3(C)C4CC[C@@]5(C)C(CC[C@@H]5CC(=O)NCCC=C(c5cc(Cl)c(OC)c(C(=O)O)c5)c5cc(Cl)c(OC)c(C(=O)O)c5)C4CC[C@H]3C2)c2cc(Cl)c(OC)c(C(=O)O)c2)cc1C(=O)O,RF,-,cytopathic effect / MTT,38 µM
CC1(C)CC=C(c2cn(-c3nccc(C(=O)NC4CCC(N5CC6CCC(C5)O6)CC4)n3)c3ccc(F)c([C@H](OC(C)(C)C)C(=O)O)c23)CC1,NL4-3,E92Q/N155H,luminescence,0.0025 µM
S=c1[nH]c(-c2ccccc2)c(-c2ccccc2)n1Nc1cccc(Cl)c1,NL4-3,-,cytopathic effect / MTT,>36.31 µM

The first 5 rows once more:

| SMILES | strain or isolate | mutations | read by | value |
|---|---|---|---|---|
| CNC(=O)c1[nH]c(=O)c(O)c2c1CCN(Cc1ccc(F)cc1)C2=O | - | - | p24 | <10 µM |
| COc1c(Cl)cc(C(=CCNC(=O)C[C@H]2CC[C@]3(C)C4CC[C@@]5(C)C(CC[C@@H]5CC(=O)NCC=C(c5cc(Cl)c(OC)c(C(=O)O)c5)c5cc(Cl)c(OC)c(C(=O)O)c5)C4CC[C@H]3C2)c2cc(Cl)c(OC)c(C(=O)O)c2)cc1C(=O)O | IIIB | - | cytopathic effect / MTT | 48 µM |
| Cc1ccnc2c1NC(=O)c1cccnc1N2C1CC1 | IIIB | - | MTT | >0.05 µM |
| O=C1c2c(O)c(=O)n(CC3CCCN4CCCCC34)c(=O)n2CCN1Cc1ccc(F)cc1 | - | - | p24 | <10 µM |
| COC(=O)c1[nH]c(=O)c(O)c2c1CCN(Cc1ccc(F)cc1)C2=O | - | - | p24 | <10 µM |